From PMC6882465, “Towards discovery of new leishmanicidal scaffolds able to inhibit Leishmania GSK-3” (Journal of Enzyme Inhibition and Medicinal Chemistry, 2019)

By UniProt entry, the sequences of proteins in these tests, tags left out. Residues count along the entry.
UniProt A6N857, 1-355: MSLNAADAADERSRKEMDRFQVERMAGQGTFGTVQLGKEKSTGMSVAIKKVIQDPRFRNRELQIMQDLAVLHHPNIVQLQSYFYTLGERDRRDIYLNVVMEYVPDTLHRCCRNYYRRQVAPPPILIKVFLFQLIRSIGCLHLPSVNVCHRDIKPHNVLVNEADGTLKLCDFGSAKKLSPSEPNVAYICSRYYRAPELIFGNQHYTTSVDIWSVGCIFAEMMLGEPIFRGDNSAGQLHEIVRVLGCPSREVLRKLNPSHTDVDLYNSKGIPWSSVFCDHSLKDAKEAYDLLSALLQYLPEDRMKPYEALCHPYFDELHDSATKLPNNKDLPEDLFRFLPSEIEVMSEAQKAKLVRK

What was measured:
LdGSK-3 = LdGSK-3 (Leishmania donovani, UniProt A6N857); test: Inhibition of LdGSK-3 with Kinase Glo; format: biochemical; conditions: for IC50: read-out: LdGSK-3 IC50
[1] = tested on: L. infantum promastigotes; test: Leishmanicidal assay on promastigotes (inhibition of MTT reduction); format: cell-based, Leishmania infantum; conditions: for EC50: read-out: L. infantum promastigotes EC50, 72 h; for antiparasitic activities (in words): promastigotes
Protocol: Leishmania parasites were resuspended with the corresponding drug concentration at 2 × 10^6 parasites/mL (final concentration) in their respective growth media in 96 microwell plates (200 µL/well). The parasites were allowed to growth for 72 h at 26 °C for promastigotes and 96 h at 32 °C for axenic amastigotes. Afterwards, inhibition of proliferation was measured by the inhibition of MTT reduction by the parasites. […] MTT reduction was allowed to proceed for 2 h at the respective temperature, and the resulting formazan solubilised by addition of 50 µL/well of 10% SDS. Afterwards, the plate was read at 595 nm in a BioRad Microplate-reader, model 680. Samples were made by triplicate and assays were repeated at least twice.

[2] = tested on: L. pifanoi axenic amastigotes; test: Leishmanicidal assay on axenic amastigotes (inhibition of MTT reduction); format: cell-based, Leishmania pifanoi; conditions: for antiparasitic activities (in words): axenic amastigotes; for EC50: read-out: L. pifanoi amast. ax EC50, 96 h

## Cn1sc(=O)n(Cc2ccccc2)c1=O
LdGSK-3; Table 1
  IC50: 1.1 µM
[1]; Table 1
  EC50: 10.9 µM

## c1ccc(-c2nc(=NCCN3CCOCC3)sn2-c2ccccc2)cc1
LdGSK-3; Table 1, tested form: 2HBr
  IC50: 0.24 µM
LdGSK-3; tested form: 2HBr
  LdGSK-3 inhibition (in words): submicromolar concentrations
[2]; tested form: 2HBr
  antiparasitic activities (in words): nil antiparasitic activities
[2]; Table 1, tested form: 2HBr
  EC50: > 50 µM
[1]; tested form: 2HBr
  antiparasitic activities (in words): nil antiparasitic activities
[1]; Table 1, tested form: 2HBr
  EC50: > 25 µM

## OCCN=c1nc(-c2ccccc2)n(-c2ccccc2)s1
LdGSK-3; Table 1, tested form: HBr
  IC50: 0.17 µM
LdGSK-3; tested form: HBr
  LdGSK-3 inhibition (in words): submicromolar concentrations
[2]; tested form: HBr
  antiparasitic activities (in words): nil antiparasitic activities
[2]; Table 1, tested form: HBr
  EC50: > 50 µM
[1]; tested form: HBr
  antiparasitic activities (in words): nil antiparasitic activities
[1]; Table 1, tested form: HBr
  EC50: > 25 µM

## CC(=O)C1=C(c2cn(C)c3ccccc23)C(=O)NC1=O
LdGSK-3
  LdGSK-3 inhibition (in words): did not inhibit LdGSK-3 activity
LdGSK-3; Table 1, @10 μM
  LdGSK-3 % inhibition: <20%@10 μM
[2]; Table 1
  EC50: > 25 µM
[1]; Table 1
  EC50: > 50 µM

## O=C(CCl)c1scc(Br)c1Br
LdGSK-3; Table 1
  IC50: 1.8 µM
[2]; Table 1
  EC50: 2.2 µM
[1]; Table 1
  EC50: 4.6 µM

## Cn1cc(C2=C(C(=O)CBr)C(=O)NC2=O)c2ccccc21
LdGSK-3; Table 1
  IC50: 1.6 µM
[2]; Table 1
  EC50: 6.5 µM
[1]; Table 1
  EC50: > 50 µM

## O=C(CBr)c1scc(Br)c1Br
LdGSK-3; Table S1, @10 µM
  LdGSK-3 % inhibition: 74.3%
[2]; Table S1
  EC50: > 50 µM
[1]; Table S1
  EC50: > 50 µM

## CCCCCCCCCCCC(=O)NNC(=O)c1c(O)c2ccccc2n(CC)c1=O
LdGSK-3
  LdGSK-3 inhibition (in words): inactive
LdGSK-3; Table 1, @10 μM
  LdGSK-3 % inhibition: <20%@10 μM
[2]; Table 1
  EC50: 3.6 µM
[1]; Table 1
  EC50: > 50 µM

Where two headings read alike, the source gives them in different places.
